Results of unrelated studies side by side (data: NIAID ChemDB).

Shared fields: whole-cell or culture tests; species: HIV-1; cells: CEM; read-out: fold resistance

An empty or dashed field is not shown. Lines come from different laboratories, so protocols vary. Fold resistance has wild type as its base.

SMILES	strain	changes	read by	result
Cc1cn([C@@H]2O[C@H](CO[Si](C)(C)C(C)(C)C)C3(OS(=O)(=O)C=C3N)[C@H]2O[Si](C)(C)C(C)(C)C)c(=O)n(C)c1=O	IIIB	RT-E138K	syncytia	>662
O=C1N(Cc2ccccc2)c2cscc2S(=O)(=O)N1Cc1ccccc1	-	RT-V106A	syncytia	≥5.78
CC(C)=CCOc1cc(NC(=S)c2ccoc2C)ccc1Cl	IIIB	RT-K103N	cytopathic effect	11.5
Nc1nc2c(ncn2[C@H]2CC[C@@H](CO)O2)c(=O)[nH]1	IIIB TIBO R82913 STR-B22 (RT L100I Y188H)	RT-L100I Y188H	syncytia	2
Cc1cn([C@@H]2O[C@H](CO[Si](C)(C)C(C)(C)C)C3(OS(=O)(=O)C=C3N)[C@H]2O[Si](C)(C)C(C)(C)C)c(=O)n(C)c1=O	IIIB-BHAP)(0.1)(RT-L100I	RT-L100I	syncytia	1.67
CC(C)=CCN1Cc2cc(Cl)cc3[nH]c(=S)n(c23)C[C@@H]1C	IIIB	RT-Y181C	cytopathic effect	125
Cc1cn([C@@H]2O[C@H](CO[Si](C)(C)C(C)(C)C)[C@]3(C(N)=CS(=O)(=O)N3C)[C@H]2O[Si](C)(C)C(C)(C)C)c(=O)n(C)c1=O	-	RT-Y181C	cytopathic effect	>100
Cc1occc1C(=S)Nc1ccc(Cl)c(/C=N/OC(C)(C)C)c1	IIIB	RT-V106A	cytopathic effect	3.13
CCOCn1c(Cc2ccccc2)c(C(C)C)c(=O)[nH]c1=O	Q-1 (RT T139K Y181C Y188D/Y)	RT-T139K Y181C Y188D/Y	cytopathic effect	667
Cc1cn([C@@H]2O[C@H](CO[Si](C)(C)C(C)(C)C)C3(OS(=O)(=O)C=C3N)[C@H]2O[Si](C)(C)C(C)(C)C)c(=O)n(C)c1=O	IIIB	RT-K103N	cytopathic effect	7.33
Cc1cn([C@@H]2O[C@H](CO[Si](C)(C)C(C)(C)C)C3(OS(=O)(=O)C=C3N)[C@H]2O[Si](C)(C)C(C)(C)C)c(=O)n(C)c1=O	IIIB	RT-M184V	p24	0.792
Cc1cn([C@@H]2O[C@H](CO[Si](C)(C)C(C)(C)C)[C@@]3(NS(=O)(=O)C=C3N)[C@H]2O[Si](C)(C)C(C)(C)C)c(=O)[nH]c1=O	-	RT-K103N	cytopathic effect	16.66
CC(=O)c1ccc(C)cc1NC(C(N)=O)c1c(Cl)cccc1Cl	HXB2 (RT E138A S162C E169D T200A L214F) Clinical isolate	RT-E138A S162C E169D T200A L214F	syncytia	1
Cc1cc(C)nc(N2C(=O)CSC2c2c(Cl)cccc2Cl)n1	-	RT-L100I	cytopathic effect	9.2
Cc1ccnc2c1NC(=O)c1cccnc1N2C1CC1	IIIB	RT-C181I	syncytia	>625
CCN1C(=O)N(Cc2ccccc2)S(=O)(=O)c2cscc21	-	RT-V106A	syncytia	>111
Nc1ncnc2c1ncn2CCOCP(=O)(O)O	Clinical isolate C19	RT-M41L V118I L210W T215Y	syncytia	16.6
O=c1[nH]cnc2c1ncn2[C@H]1CC[C@@H](CO)O1	IIIB-BHAP)(0.1)(RT-L100I	RT-L100I	syncytia	2.6
Cc1ccnc(N2C(=O)CSC2c2c(Cl)cccc2Cl)n1	-	RT-K103N	cytopathic effect	559
CC(C)(C)[Si](C)(C)OC[C@H]1O[C@@H](n2ccc(=O)[nH]c2=O)[C@H](O[Si](C)(C)C(C)(C)C)C12OS(=O)(=O)C=C2N	IIIB	RT-E138K	syncytia	>61.5
Nc1ncnc2c1ncn2CCOCP(=O)(O)O	IIIB-Nevirapine(0.1)(RT-Y181C)	RT-Y181C	syncytia	1.21
CC(C)=CCN1Cc2cc(Cl)cc3[nH]c(=S)n(c23)C[C@@H]1C	IIIB	RT-E138K	syncytia	7
CCOCn1c(Cc2ccccc2)c(C(C)C)c(=O)[nH]c1=O	IIIB	RT-V106A	syncytia	68
CC(C)=CCN1Cc2cc(Cl)cc3[nH]c(=S)n(c23)C[C@@H]1C	IIIB TIBO R82913 STR-1 (RT L100I Y181C)	RT-L100I Y181C	syncytia	200
Cc1c(N)nc(N)nc1OCCOCP(=O)(O)O	Clinical isolate C20	RT-M41L D67N V118I M184V L210W T215Y	syncytia	16.1
C#CCN1C(=O)N(Cc2ccccc2)S(=O)(=O)c2cscc21	IIIB	RT-L100I	syncytia	1.18
CC(C)=CCN1Cc2cccc3[nH]c(=S)n(c23)C[C@@H]1C	IIIB TSAO-T(RT-E138K)	RT-E138K	syncytia	4.5
CCn1c(=O)c(C)cn([C@@H]2O[C@H](CO[Si](C)(C)C(C)(C)C)C3(OS(=O)(=O)C=C3N)[C@H]2O[Si](C)(C)C(C)(C)C)c1=O	HXB2 (RT E138A S162C E169D T200A L214F) Clinical isolate	RT-E138A S162C E169D T200A L214F	syncytia	>660
Cc1cc(SC2=C(O)C[C@@](CCc3ccsc3)(C(C)C)OC2=O)c(C(C)(C)C)cc1CO	-	PR-L10I V31I I15V K20I L24I M36I S37N I54V R57K L63P A71V V82A	cytopathic effect	<1
Fc1cccc(F)c1C1SCc2nc3ccccc3n21	IIIB	RT-K103N	cytopathic effect / XTT	11.2
Nc1ccn([C@H]2CC[C@@H](CO)O2)c(=O)n1	IIIB	RT-E138K	syncytia	2.7
Cc1cn([C@@H]2O[C@H](CO[Si](C)(C)C(C)(C)C)[C@]3(C(N)=CS(=O)(=O)N3C)[C@H]2O[Si](C)(C)C(C)(C)C)c(=O)n(C(=O)OC(C)(C)C)c1=O	-	RT-K103N	cytopathic effect	>2.85
Nc1nc2c(ncn2[C@H]2CC[C@@H](CO)O2)c(=O)[nH]1	TSAO-m3T-resistant (RT E138K)	RT-E138K	-	0.7
Nc1ccn([C@H]2CC[C@@H](CO)O2)c(=O)n1	IIIB TSAO-T(RT-E138K)	RT-E138K	syncytia	0.6
Cc1cn([C@@H]2O[C@H](CO[Si](C)(C)C(C)(C)C)[C@@]3(OS(=O)(=O)C=C3N)[C@H]2O[Si](C)(C)C(C)(C)C)c(=O)[nH]c1=O	IIIB	RT-E138K	syncytia	94
c1ccc(C2OCc3nc4ccccc4n32)cc1	TSAO-resistant (RT E138K)	RT-E138K	cytopathic effect / MTT	>0.402
CCOCn1c(Sc2ccccc2)c(CC)c(=O)[nH]c1=O	IIIB	RT-C181I	syncytia	69.3
Fc1cccc(F)c1C1SCc2nc3ccccc3n21	-	RT-Y181C	cytopathic effect	9.93
Cc1cn([C@@H]2O[C@H](CO[Si](C)(C)C(C)(C)C)C3(OS(=O)(=O)C=C3N)[C@H]2O[Si](C)(C)C(C)(C)C)c(=O)n(C)c1=O	IIIB	RT-L100I	syncytia	1.75
Nc1nc2c(ncn2[C@H]2CC[C@@H](CO)O2)c(=O)[nH]1	TIBO-1(RT-L100I)	RT-L100I	syncytia	0.25
O=C1N(Cc2ccccc2)c2cscc2S(=O)(=O)N1Cc1ccccc1	IIIB	RT-K103N	syncytia	>5.56
C[C@H](COc1cc(N)nc(N)n1)OCP(=O)(O)O	Clinical isolate L6.5	RT-S68G K70T V75I F77L K103N F116Y Q151M K219R	syncytia	10.8
Fc1cccc(F)c1[C@H]1SCc2nc3ccccc3n21	IIIB	RT-D138K	cytopathic effect / XTT	1.4
CC(C)=CCOc1cc(NC(=S)c2ccoc2C)ccc1Cl	A-0 (RT-L100I)	RT-L100I	cytopathic effect	3
CC(C)=CCN1Cc2cc(Cl)cc3[nH]c(=S)n(c23)C[C@@H]1C	IIIB	RT-K103N	p24	≥250
CC[C@H]1C(=O)Nc2ccc(F)cc2N1C(=O)OC(C)C	NNRTI-resistant	RT-K103N	cytopathic effect	66.6
CC(C)=CCN1Cc2cc(Cl)cc3[nH]c(=S)n(c23)C[C@@H]1C	IIIB	RT-C181I	syncytia	250
COc1cc(C)nc(N2C(=O)CSC2c2c(Cl)cccc2Cl)n1	-	RT-Y188H	cytopathic effect	151.5
CCN1C(=O)N(Cc2ccccc2)S(=O)(=O)c2cscc21	IIIB	RT-K103N	syncytia	>207
CC(C)=CCN1Cc2cc(Cl)cc3[nH]c(=S)n(c23)C[C@@H]1C	IIIB HEPT-resistant (RT Y188H)	RT-Y188H	syncytia	≥250
Cc1cn([C@@H]2O[C@H](CO[Si](C)(C)C(C)(C)C)C3(OS(=O)(=O)C=C3N)[C@H]2O[Si](C)(C)C(C)(C)C)c(=O)n(C)c1=O	NNRTI-resistant	RT-V106A	cytopathic effect	>180
O=c1[nH]cnc2c1ncn2[C@H]1CC[C@@H](CO)O1	IIIB	RT-E138K	syncytia	3.26
Nc1ncnc2c1ncn2CCOCP(=O)(O)O	IIIB nevirapine-resistant (RT Y181C)	RT-Y181C	syncytia	3.57
Cc1cn([C@@H]2O[C@H](CO[Si](C)(C)C(C)(C)C)C3(OS(=O)(=O)C=C3N)[C@H]2O[Si](C)(C)C(C)(C)C)c(=O)n(C)c1=O	IIIB NEV(RT-V106A)	RT-V106A	syncytia	83.3
CC(C)Nc1cccnc1N1CCN(C(=O)c2cc3ccccc3[nH]2)CC1	TIBO-1(RT-L100I)	RT-L100I	syncytia	40
CCc1c(Sc2ccccc2)n(COCc2ccccc2)c(=O)[nH]c1=O	IIIB	RT-C181I	syncytia	31.8
CCn1c(=O)c(C)cn([C@@H]2O[C@H](CO[Si](C)(C)C(C)(C)C)C3(OS(=O)(=O)C=C3N)[C@H]2O[Si](C)(C)C(C)(C)C)c1=O	IIIB E-EBU(RT-Y181C)	RT-Y181C	syncytia	>833
Cc1ccnc2c1NC(=O)c1cccnc1N2C1CC1	-	RT-Y181C	cytopathic effect	69
Cc1occc1C(=S)Nc1ccc(Cl)c(C(=O)OC2CCCC2)c1	IIIB	RT-Y188L	syncytia	500
CCOCn1c(Cc2cc(C)cc(C)c2)c(CC)c(=O)[nH]c1=O	IIIB BHAP(RT-L100I)	RT-L100I	syncytia	10
Cc1cc(C)cc(Sc2c(C(C)C)c(=O)[nH]c(=S)n2COCCO)c1	IIIB	RT-E138K	syncytia	3.33
Fc1cccc(F)c1C1SCc2nc3ccccc3n21	-	RT-Y188H	cytopathic effect	2.99
CN1C(=O)N(Cc2ccccc2)S(=O)(=O)c2cscc21	-	RT-L100I	syncytia	5.65
Cc1cn([C@@H]2O[C@H](CO[Si](C)(C)C(C)(C)C)C3(OS(=O)(=O)C=C3N)[C@H]2O[Si](C)(C)C(C)(C)C)c(=O)n(C)c1=O	Pyr/BHAP(RT-Y181I)	RT-Y181I	syncytia	750
Cc1cn([C@H]2C[C@H](N=[N+]=[N-])[C@@H](CO)O2)c(=O)[nH]c1=O	-	RT-E138K	cytopathic effect	2.28
Nc1ncnc2c1ncn2CC(CF)OCP(=O)(O)O	IIIB TIBO R82913 STR-B02 (RT L100I E138K)	RT-L100I E138K	syncytia	1.33
COc1ccc2c(c1)N(C(=O)OC(C)C)[C@@H](CSC)C(=S)N2	IIIB	RT-Y181C	p24	2
Fc1cccc(F)c1C1SCc2nc3ccccc3n21	TIBO R82150-resistant (RT K103N)	RT-K103N	cytopathic effect / MTT	11.2
Cc1occc1C(=S)Nc1ccc(Cl)c(/C=N/OC(C)(C)C)c1	IIIB	RT-M184V	p24	0.14
CN1C(=O)N(Cc2ccccc2)S(=O)(=O)c2cscc21	IIIB	RT-Y181C	syncytia	>141
C[C@H](Cn1cnc2c(N)ncnc21)OCP(=O)(O)O	HHA-500SN (GP120-T90I T188N T236A N289K T297I S334N T341I N386D)	gp120 T90I T188N T236A N289K T297I S334N T341I N386D	syncytia	4.1
Cc1cn([C@H]2C[C@H](N=[N+]=[N-])[C@@H](CO)O2)c(=O)[nH]c1=O	Y-1 (RT-K103N)	RT-K103N	cytopathic effect	57
CC(C)(C)[Si](C)(C)OC[C@H]1O[C@@H](n2cnc3c(N)ncnc32)[C@H](O[Si](C)(C)C(C)(C)C)C12OS(=O)(=O)C=C2N	IIIB	RT-E138K	syncytia	>800
Fc1cccc(F)c1[C@@H]1SCc2nc3ccccc3n21	IIIB	RT-V106N	cytopathic effect / XTT	≥6.25
N#CCN1C(=O)N(Cc2ccccc2)S(=O)(=O)c2cscc21	IIIB	RT-Y188H	syncytia	≥50
Nc1ncnc2c1ncn2CCOCP(=O)(O)O	IIIB	RT-E138K	syncytia	0.882
Cc1occc1C(=S)Nc1ccc(Cl)c(/C=N/OC(C)(C)C)c1	IIIB	RT-V106A	syncytia	2.6
CCc1cc(NCc2nc3c(Cl)ccc(Cl)c3o2)c(=O)[nH]c1C	IIIB	RT-Y181C	syncytia	500
CC(C)=CCN1Cc2cccc3[nH]c(=S)n(c23)C[C@@H]1C	TSAO-m3T-resistant (RT E138K)	RT-E138K	-	0.778

A second listing of 11 rows from above:

SMILES,strain,changes,read by,result
Cc1ccnc2c1NC(=O)c1cccnc1N2C1CC1,IIIB,RT-C181I,syncytia,>625
COc1ccc2c(c1)N(C(=O)OC(C)C)[C@@H](CSC)C(=S)N2,IIIB,RT-Y181C,p24,2
C[C@H](COc1cc(N)nc(N)n1)OCP(=O)(O)O,Clinical isolate L6.5,RT-S68G K70T V75I F77L K103N F116Y Q151M K219R,syncytia,10.8
Cc1cc(SC2=C(O)C[C@@](CCc3ccsc3)(C(C)C)OC2=O)c(C(C)(C)C)cc1CO,-,PR-L10I V31I I15V K20I L24I M36I S37N I54V R57K L63P A71V V82A,cytopathic effect,<1
Nc1nc2c(ncn2[C@H]2CC[C@@H](CO)O2)c(=O)[nH]1,TIBO-1(RT-L100I),RT-L100I,syncytia,0.25
CCc1c(Sc2ccccc2)n(COCc2ccccc2)c(=O)[nH]c1=O,IIIB,RT-C181I,syncytia,31.8
Cc1cn([C@H]2C[C@H](N=[N+]=[N-])[C@@H](CO)O2)c(=O)[nH]c1=O,-,RT-E138K,cytopathic effect,2.28
CN1C(=O)N(Cc2ccccc2)S(=O)(=O)c2cscc21,IIIB,RT-Y181C,syncytia,>141
CC(C)=CCN1Cc2cccc3[nH]c(=S)n(c23)C[C@@H]1C,IIIB TSAO-T(RT-E138K),RT-E138K,syncytia,4.5
Cc1cn([C@@H]2O[C@H](CO[Si](C)(C)C(C)(C)C)C3(OS(=O)(=O)C=C3N)[C@H]2O[Si](C)(C)C(C)(C)C)c(=O)n(C)c1=O,IIIB,RT-E138K,syncytia,>662
CC(C)=CCOc1cc(NC(=S)c2ccoc2C)ccc1Cl,IIIB,RT-K103N,cytopathic effect,11.5